Data as given in patent publication US20260315452A1, “PROTEASE INHIBITORS AND USES THEREOF” (priority 2023, published 2026).

Molecular target: SARS-CoV-2 3CLpro (Severe acute respiratory syndrome coronavirus 2, UniProt P0DTD1)
Test: In vitro FRET-based enzymatic assay, inhibition of SARS-CoV-2 3CLpro
Type: biochemical
Conditions: read-out: Inhibitory Activity (IC50), 15 nM 3CLpro, 25 μM fluorogenic substrate, 37° C.

CNC(=O)c1cc(Cl)cc([N+](=O)[O-])c1N[C@H]1CN(C(=O)c2cncc3c2ccn3C)CCC1(F)F
IC50: < 100 nM

Structures were worked out from names or drawings and are uncertain.
